This passage reports cell viability results from the supplement of paper PMC8773631.

As a reminder, the cell viability is a read-out of living cells in per cent, often relative to untreated cells.

± gives the uncertainty stated by the source. The list shows a part of the results, in another mix than the full data.

This assay concerns NCC-MFS5-C1. Nature of the assay: cell viability relative to DMSO control; higher = less growth inhibition. Conditions: 10 µM; treatment time: 3 days. Here is the method:
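NCC-MFS5-C1 myxofibrosarcoma cells (1x10^4 per well, 384-well) were treated on day 2 with 10 µM of each drug. On day 5, viability was read by CCK-8 absorbance at 450 nm and normalised to the DMSO control (%), n = 2.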
In the case of `[As+3].[As+3].[O-2].[O-2].[O-2]` [Arsenic(III) oxide], the cell viability turned out to be 106 ± 13%.
